The results in this text go back to ChEMBL document CHEMBL3433997, “St. Jude Leishmania screening dataset” (2016).

Amino acid sequences for entries named in this document (tags omitted). A change or cut given only in a name is not applied to a line headed by its entry.
UniProt P11166: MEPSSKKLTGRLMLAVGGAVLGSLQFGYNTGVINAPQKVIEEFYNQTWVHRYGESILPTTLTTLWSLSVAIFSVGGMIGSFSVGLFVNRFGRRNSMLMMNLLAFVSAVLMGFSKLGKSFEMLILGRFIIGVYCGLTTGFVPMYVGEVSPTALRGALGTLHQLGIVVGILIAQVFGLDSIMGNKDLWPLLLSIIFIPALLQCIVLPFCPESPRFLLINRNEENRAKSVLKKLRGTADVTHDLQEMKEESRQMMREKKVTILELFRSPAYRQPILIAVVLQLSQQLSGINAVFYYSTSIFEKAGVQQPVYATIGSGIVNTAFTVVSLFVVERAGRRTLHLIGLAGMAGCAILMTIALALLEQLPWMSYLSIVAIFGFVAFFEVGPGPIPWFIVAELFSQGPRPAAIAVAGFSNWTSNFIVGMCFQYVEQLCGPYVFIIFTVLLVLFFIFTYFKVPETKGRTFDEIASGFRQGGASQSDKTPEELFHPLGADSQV

What all share (format): functional
For test [1], the target named is Solute carrier family 2, facilitated glucose transporter member 1 (Homo sapiens) (UniProt P11166). Description: ST_JUDE_LEISH: Cytotoxicity at 2uM final concentration against transgenic Leishmania Mexicana promastigotes LmGLUT1 that are glucose transport deficient and complemented with the human glucose transporter GLUT1. Activity is measured by DNA content using SYBR green in vitro.

Test [2] addresses Hexose transporter 1 (Plasmodium falciparum) (UniProt O97467). Kind of test: ST_JUDE_LEISH: Cytotoxicity at 2uM final concentration against transgenic Leishmania Mexicana promastigotes LmPfHT that are glucose transport deficient and complemented with the Plasmodium falciparum hexose transporter. Activity is measured by DNA content using SYBR green in vitro.
The target in test [3] is Glucose transporter (Leishmania mexicana) (UniProt O61059). Description: ST_JUDE_LEISH: Cytotoxicity at 2uM final concentration against transgenic Leishmania Mexicana promastigotes LmGT2 that are glucose transport deficient and complemented with the L. Mexicana glucose transporter 2. Activity is measured by DNA content using SYBR green in vitro.

The list shows a part of the results, in another mix than the full data.

`COc1cc(C(=O)NC(SC2=NCCS2)C(Cl)(Cl)Cl)cc(OC)c1OC` (stereo not drawn): the results for the inhibition in test [1], in test [2] and in test [3] were -0.59%, 1.6% and -0.53%, respectively.
